A mixed list of measured activities; the numbers were collected in NIAID ChemDB.

All rows: tests in culture

Percent inhibition refers to the dose given; in toxicity tests it is the harm to the cells. Blank or dashed fields: not listed here. A number after MIC or MFC names an inhibition level or a share of isolates. Rows are shuffled and stem from different studies. Zones are inhibition diameters on agar. ECn: concentration that inhibits the pathogen or its effect by n%.

compound	strain or isolate	cell line	dose	organism	method	setting	measure	value
Nc1nc(=O)n([C@@H]2CS[C@H](CO)O2)cc1F	WILD TYPE	Huh7		Duck hepatitis B virus			EC50	9.5 µM
Cc1cc(NS(=O)(=O)c2ccc(N)cc2)no1			100 µM	Pneumocystis carinii		5 d	inhibition	9%
Nc1nc(N)c2ncn(CCOCP(=O)(O)O)c2n1	Ganciclovir-resistant	C1271		Mouse cytomegalovirus	plaque count		EC50	0.3 µM
COCC(=O)OC1CCn2c1nc1c2C(=O)C(C)=C(NC(C)=O)C1=O		BC3		Kaposi sarcoma virus	GFP / microscopy		EC50	0.5 µM
O=C(O)P(=O)(O)O	IIIB	PBL	128 µM	HIV-1	RT activity	21 d	inhibition	87%
NC(=O)c1c[se]c([C@@H]2O[C@H](CO)[C@@H](O)[C@H]2O)n1	TYPE 3/C243	VERO		Parainfluenza virus	cytopathic effect		EC50	1 µg/mL
NC(=O)c1[nH]nc([C@@H]2O[C@H](CO)[C@@H](O)[C@H]2O)c1O	S-8	HeLa		Respiratory syncytial virus	cytopathic effect		EC50	0.02 µg/mL
CO[C@@H]1[C@@H](OC(N)=O)[C@@H](O)[C@H](Oc2ccc3c(O)c(NC(=O)c4ccc(O)c(CC=C(C)C)c4)c(=O)oc3c2C)OC1(C)C				Vittaforma corneae			MIC50	>100 µM
Nc1ccc(S(=O)(=O)Nc2cc(F)cc(F)c2)cc1			100 µM	Pneumocystis carinii		5 d	inhibition	33%
CC1COc2c(N3CCN(C)CC3)c(F)cc3c(=O)c(C(=O)O)cn1c23				Vittaforma corneae			MIC50	54 µM
Cc1ccc(O)c(Cn2c(NC3CCN(CCN)CC3)nc3c(C)cccc32)n1	A2	HEP-2		Respiratory syncytial virus	cell fusion		EC50	0.0009 µM
C=C1C=C(C)c2cc3c(COC(C)=O)cc(=O)n(C)c3c3c2N1CO3		BC3		Kaposi sarcoma virus	GFP / microscopy		EC50	0.5 µM
CCC(C)n1ncn(-c2ccc(N3CCN(c4ccc(OC[C@H]5CO[C@](Cn6cncn6)(c6ccc(Cl)cc6Cl)O5)cc4)CC3)cc2)c1=O	24 clinical isolates			Candida guilliermondii	broth dilution		MIC90	0.25 µg/mL
Nc1ccn([C@@H]2CS[C@H](CO)O2)c(=O)n1		MDBK		Bovine viral diarrhea virus	cytopathic effect		EC50	>1000 µM
COC(=O)[C@H]1[C@@H]2C[C@@H](O[C@@H]3O[C@H](C)[C@@H](O)[C@H](N)[C@@H]3O)/C=C/C=C/C=C/C=C/C=C/C=C/C=C/[C@H](C)[C@@H](O)[C@H](C)[C@H](C)OC(=O)C[C@H](O)C[C@H](O)[C@@H](O)CC[C@H](O)C[C@H](O)C[C@](O)(C[C@@H]1O)O2		T98G	10 µg/mL	Vesicular stomatitis virus	plaque count		inhibition	0%
CCCCN1C[C@H](O)[C@@H](O)[C@H](O)[C@H]1CO		MDBK		Bovine viral diarrhea virus	plaque count		EC50	>250 µM
Nc1ncnc2c1ncn2C[C@@H](CO)OCP(=O)(O)O	Foscarnet-resistant	C1271		Mouse cytomegalovirus	plaque count		EC50	0.6 µM
COc1cc(Cc2cnc(N)nc2N)cc(OC)c1Br	Isolate 5143			Mycobacterium ulcerans			MIC	2 µg/mL
Nc1nccc2c1ncn2[C@@H]1O[C@H](CO)[C@@H](O)[C@H]1O	TRVL 11573	VERO		Tacaribe virus	cytopathic effect		EC50	2.8 µg/mL
COc1cc(Cc2cnc(N)nc2N)cc(OC)c1OC	Isolate 842			Mycobacterium ulcerans			MIC	>16 µg/mL
C[C@@H](O)[C@H]1C(=O)N2C(C(=O)O)=C(SCCN=CN)C[C@H]12	S10			Pseudomonas aeruginosa			MIC	1 µg/mL
Cc1cn([C@H]2C[C@H](N=[N+]=[N-])[C@@H](COP(=O)(O)OC[C@H]3OC(O)[C@H](O)[C@@H](O)[C@@H]3O)O2)c(=O)[nH]c1=O	LAV-Bru	CEM	25 µM	HIV-1	RT activity	26 d	inhibition	93%
c1cc(CN2CCCNCCNCCCNCC2)ccc1CN1CCCNCCNCCCNCC1	CM235 CLADE E R5	PBMC	0.1 µM	HIV-1	p24		inhibition	2%
N=C(N)c1cn([C@H]2C[C@H](O)[C@@H](CO)O2)c2ncnc(N)c12	SMITH	MEF		Mouse cytomegalovirus	plaque count		EC50	11 µM
O=C1C(c2c(O)[nH]c3ccc(S(=O)(=O)O)cc23)=Nc2ccccc21	ATCC 50839	HFF		Toxoplasma gondii			EC50	>320 µg/mL
FC(F)(F)c1cccc([Se][Se]c2cccc(C(F)(F)F)c2)c1				Candida dubliniensis	broth dilution		MFC	>64 µg/mL
c1ccc(-c2cccc(-c3ccccn3)n2)nc1		BC3		Kaposi sarcoma virus	GFP / microscopy		EC50	<0.05 µM
Cc1cn([C@@H]2C[C@@H](O)[C@H](CO)O2)c(=O)[nH]c1=O		PDH		Duck hepatitis B virus			EC50	0.18 µM
NC(=O)c1ncn([C@@H]2O[C@H](CO)[C@@H](O)[C@H]2O)n1		CV-1		Measles virus	virus yield		EC50	2 µg/mL
Nc1ccn(C[C@@H](CO)OCP(=O)(O)O)c(=O)n1	WILD TYPE	C1271		Mouse cytomegalovirus	plaque count		EC50	0.2 µM
Nc1ccn([C@@H]2CS[C@H](CO)O2)c(=O)n1	WILD TYPE	LMH		Duck hepatitis B virus			EC50	10 µM
CC1(C)O[C@@H]1COc1c2occc2cc2ccc(=O)oc12	CQ-resistant	RBC		Plasmodium falciparum			EC90	20.5 µg/mL
Nc1ncnc2c1ccn2[C@@H]1O[C@H](CO)[C@@H](O)[C@H]1O	S-2	HeLa		Respiratory syncytial virus	cytopathic effect		EC50	1 µg/mL
Oc1cccc2c1[nH]c1c(C3=C[C@]4(O)C/C=C/CCCCCN5CC[C@@H]3[C@]3(C[C@@H]6/C=C\CCCCN6C34)C5)nccc12		HFF	1 µM	Toxoplasma gondii			inhibition	71%
CCn1nc(C(=O)O)c(=O)c2cc3c(cc21)OCO3				Vittaforma corneae			MIC50	49 µM
N=C(N)c1ccc2[nH]c(C(=N)N)cc2c1	LONG	HeLa		Respiratory syncytial virus	cytopathic effect		EC50	>25 µg/mL
Nc1ncnc2c1ncn2[C@@H]1C[C@@H](O)[C@H](CO)O1		PDH		Duck hepatitis B virus			EC50	0.15 µM
Nc1nc2c(ncn2CC(CO)OCP(=O)(O)O)c(=O)[nH]1	Ganciclovir-resistant	C1271		Mouse cytomegalovirus	plaque count		EC50	2.6 µM
CC(=O)N1CCN(c2ccc(OC[C@H]3CO[C@](Cn4ccnc4)(c4ccc(Cl)cc4Cl)O3)cc2)CC1	52 clinical isolates			Candida parapsilosis	broth dilution		MIC50	<0.031 µg/mL
COc1cc2oc(=O)ccc2cc1CC(O)C(C)(C)O	ESBL-75799		250 µg/disc	Klebsiella pneumoniae	agar diffusion		zone	10 mm
O=Nc1c(-c2c(O)[nH]c3ccc(Br)cc23)[nH]c2ccccc12	ATCC 50839	HFF		Toxoplasma gondii			EC50	0.6 µg/mL
C[C@H](O)[C@H]1C(=O)N2C(C(=O)O)=C(S[C@@H]3CN[C@H](C(=O)N(C)C)C3)[C@H](C)[C@H]12	S10			Pseudomonas aeruginosa			MIC	0.5 µg/mL
CO[C@@H]1C[C@@H](C[C@H]2CC[C@H](C)[C@H]([C@@H](C)C(=O)O)O2)O[C@]2(O[C@@](C)([C@H]3CC[C@@](C)(C4O[C@@H]([C@H]5O[C@@](O)(CO)[C@H](C)C[C@@H]5C)C[C@@H]4C)O3)C[C@H]2C)[C@@H]1C		BC3		Kaposi sarcoma virus	GFP / microscopy		EC50	<0.05 µM
O=C1c2cc(F)ccc2-n2c1nc1ccccc1c2=O	ATCC 50839	HFF		Toxoplasma gondii			EC50	0.001 µg/mL
CC[C@@]1(O)C(=O)OCc2c1cc1n(c2=O)Cc2cc3ccccc3nc2-1			10 µg/mL	Pneumocystis carinii		7 d	inhibition	0%
CCn1cc(C(=O)O)c(=O)c2cc(F)c(N3CCNCC3)nc21				Vittaforma corneae			MIC50	60 µM
CO[C@H]1C[C@H](O[C@@H]2CC[C@@]3(O)CC[C@@H]4[C@H](CC[C@]5(C)C(C6=CC(=O)OC6)CC[C@]45O)[C@@]3(C=O)C2)O[C@H](C)[C@H]1O[C@@H]1O[C@H](CO[C@@H]2O[C@H](CO)[C@@H](O)[C@H](O)[C@H]2O)[C@@H](O)[C@H](O)[C@H]1O		BC3		Kaposi sarcoma virus	GFP / microscopy		EC50	10 µM
Nc1ncnc2c1ncn2[C@@H]1O[C@H](CO)C(O)OC1O	TRVL 11573	VERO		Tacaribe virus	cytopathic effect		EC50	0.5 µg/mL
O=C1C(c2c(O)[nH]c3ccccc23)=Nc2ccccc21	ATCC 50839	HFF		Toxoplasma gondii			EC50	>320 µg/mL
Nc1nc2c(ncn2COC(COCP(=O)(O)O)COCP(=O)(O)O)c(=O)[nH]1	Ganciclovir-resistant	C1271		Mouse cytomegalovirus	plaque count		EC50	5.2 µM
C[C@H]1COc2c(N3CCN(C)CC3)c(F)cc3c(=O)c(C(=O)O)cn1c23	Clinical isolate CP1000			Streptococcus pneumoniae			MIC	1 µg/mL
Nc1nccc2c1ncn2[C@@H]1C[C@H](CO)[C@@H](O)[C@H]1O	TRVL 11573	VERO		Tacaribe virus	cytopathic effect		EC50	2.3 µg/mL
CC1=CC(=C(c2ccc(N)cc2)c2ccc(N)cc2)C=CC1=N		BC3		Kaposi sarcoma virus	GFP / microscopy		EC50	0.5 µM
NC(=O)c1ncn([C@@H]2O[C@H](CO)[C@@H](O)[C@H]2O)n1		MDBK		Bovine viral diarrhea virus	plaque count		EC50	9.1 µM
c1ccc([Se][Se]c2ccccc2)cc1				Candida guilliermondii	broth dilution		MFC	>64 µg/mL
c1ccc2c(c1)CSSC2	clone 9 (RD3-0028-resistant)	HeLa		Respiratory syncytial virus	cytopathic effect		EC50	>244.4 µM
C#CC[C@@H](C(=O)N[C@H](/C=C/C(=O)OCC)C[C@@H]1CCNC1=O)n1cccc(NC(=O)c2cc(C)on2)c1=O	Serotype 19	H1-HELA		Rhinovirus	cytopathic effect / XTT		EC50	0.049 µM
Nc1ncnc2c1ncn2[C@H]1[C@H](O)[C@H](O)[C@]2(CO)O[C@H]12	LONG	HeLa		Respiratory syncytial virus	cytopathic effect		EC50	>500 µg/mL
Nc1ncnc2c1ncn2[C@H]1[C@H](O)[C@H](O)[C@]2(CO)O[C@H]12	TRVL 11573	VERO		Tacaribe virus	cytopathic effect		EC50	>1 µg/mL
N=C(N)c1cn([C@@H]2O[C@H](CO)[C@@H](O)[C@@H]2O)c2ncnc(N)c12	SMITH	MEF		Mouse cytomegalovirus	plaque count		EC50	120 µM
COc1c(O)cc2oc(-c3ccccc3)c(OC)c(=O)c2c1O				Saccharomyces cerevisiae			MIC	250 µg/mL
CCCCCCCCCCCCCCCCOP(=O)(OC[C@H]1OC(O)[C@H](O)[C@@H](O)[C@@H]1O)OC[C@H]1O[C@@H](n2cc(C)c(=O)[nH]c2=O)C[C@@H]1N=[N+]=[N-]	LAV-Bru	CEM	1 µM	HIV-1	RT activity	22 d	inhibition	0%
NC(=O)c1ncn([C@@H]2O[C@H](CO)[C@@H](O)[C@H]2O)n1		VERO		Pichinde virus	plaque count		EC50	24 µM
C#Cc1c(C(N)=O)ncn1[C@@H]1O[C@H](CO)[C@@H](O)[C@H]1O	TYPE A/LONG	HeLa		Respiratory syncytial virus	plaque count		EC50	0.35 µg/mL

Repeating the final 8 entries:

compound | strain or isolate | cell line | dose | organism | method | setting | measure | value
C#CC[C@@H](C(=O)N[C@H](/C=C/C(=O)OCC)C[C@@H]1CCNC1=O)n1cccc(NC(=O)c2cc(C)on2)c1=O | Serotype 19 | H1-HELA |  | Rhinovirus | cytopathic effect / XTT |  | EC50 | 0.049 µM
Nc1ncnc2c1ncn2[C@H]1[C@H](O)[C@H](O)[C@]2(CO)O[C@H]12 | LONG | HeLa |  | Respiratory syncytial virus | cytopathic effect |  | EC50 | >500 µg/mL
Nc1ncnc2c1ncn2[C@H]1[C@H](O)[C@H](O)[C@]2(CO)O[C@H]12 | TRVL 11573 | VERO |  | Tacaribe virus | cytopathic effect |  | EC50 | >1 µg/mL
N=C(N)c1cn([C@@H]2O[C@H](CO)[C@@H](O)[C@@H]2O)c2ncnc(N)c12 | SMITH | MEF |  | Mouse cytomegalovirus | plaque count |  | EC50 | 120 µM
COc1c(O)cc2oc(-c3ccccc3)c(OC)c(=O)c2c1O |  |  |  | Saccharomyces cerevisiae |  |  | MIC | 250 µg/mL
CCCCCCCCCCCCCCCCOP(=O)(OC[C@H]1OC(O)[C@H](O)[C@@H](O)[C@@H]1O)OC[C@H]1O[C@@H](n2cc(C)c(=O)[nH]c2=O)C[C@@H]1N=[N+]=[N-] | LAV-Bru | CEM | 1 µM | HIV-1 | RT activity | 22 d | inhibition | 0%
NC(=O)c1ncn([C@@H]2O[C@H](CO)[C@@H](O)[C@H]2O)n1 |  | VERO |  | Pichinde virus | plaque count |  | EC50 | 24 µM
C#Cc1c(C(N)=O)ncn1[C@@H]1O[C@H](CO)[C@@H](O)[C@H]1O | TYPE A/LONG | HeLa |  | Respiratory syncytial virus | plaque count |  | EC50 | 0.35 µg/mL